A mixed list of measured activities; the numbers were collected in NIAID ChemDB.

Common to all: tests on isolated targets

Blank or dashed fields: not listed here.

structure | target | tested at | strain or isolate | mutations | endpoint | method | species | result
CC(C)c1cc(C(C)C)c(C(=O)Nc2nnc(NCCc3cccs3)s2)c(C(C)C)c1 | Polymerase | - | - | - | IC50 | - | Human cytomegalovirus | >25 µM
COc1cc(OC)c(C=C2SC(=O)N(CC(=O)N3CCNCC3)C2=O)c(OC)c1 | Falcipain-2 | - | - | - | IC50 | fluorescence | Plasmodium falciparum | >50 µM
CCc1c[nH]c(=S)[nH]c1=O | Uracil phosphoribosyltransferase | 2000 µM | RH | - | inhibition | - | Toxoplasma gondii | <10%
O=P(O)(O)C(Br)P(=O)(O)O | DNA polymerase | - | - | - | IC50 | - | Herpes simplex virus 2 | >100 µM
O=C1CC(=O)NC(=O)N1 | Uracil phosphoribosyltransferase | 2000 µM | RH | - | inhibition | - | Toxoplasma gondii | <5%
CCCCCCCCCCCNc1nnc(NC(=O)c2ccc3c(c2)C(=O)OC3=O)s1 | Polymerase | - | - | - | IC50 | - | Human cytomegalovirus | <25 µM
CCN(C(=O)OCc1ccccc1)C1CCN(CC[C@](C)(CN(C)S(=O)(=O)c2ccccc2)c2ccccc2)CC1 | CCR5 | - | - | CCR5-Y108A | IC50 | radiometric | - | 1.01 µM
O=C(Nc1nnc(NCCNc2ccccc2)s1)c1c(Cl)cccc1Cl | Polymerase | - | - | - | IC50 | - | Human cytomegalovirus | >25 µM
O=P(O)(O)C(F)P(=O)(O)O | DNA polymerase | - | - | - | IC50 | - | Herpes simplex virus 1 | >100 µM
c1ncncn1 | Uracil phosphoribosyltransferase | 2000 µM | RH | - | inhibition | - | Toxoplasma gondii | <10%
O=C(O)C(Br)(Br)P(=O)(O)O | DNA polymerase | - | - | - | IC50 | - | Epstein-Barr virus | >100 µM
Cc1ccc(C=C2SC(=O)N(CC(=O)N3CCN(c4ccccc4)CC3)C2=O)cc1 | Falcipain-2 | - | - | - | IC50 | fluorescence | Plasmodium falciparum | 45.71 µM
O=P(O)(O)C(Cl)P(=O)(O)O | DNA polymerase | - | - | - | IC50 | - | Herpes simplex virus 2 | >100 µM
Cc1cnccn1 | Uracil phosphoribosyltransferase | 2000 µM | RH | - | inhibition | - | Toxoplasma gondii | <5%
CC(F)(C(=O)O)P(=O)(O)O | DNA polymerase | - | - | - | IC50 | - | Herpes simplex virus 2 | >100 µM
CCCc1c[nH]c(=O)[nH]c1=O | Uracil phosphoribosyltransferase | - | RH | - | IC50 | - | Toxoplasma gondii | >2000 µM
CC(C)=CCOc1cc(NC(=S)c2ccoc2C)ccc1Cl | Reverse transcriptase | - | - | RT-N137H | IC50 | nucleotide incorporation / radiometric | HIV | 0.048 µM
O=C(c1ccccc1Cl)N1C[C@H](CN2CCC(O)(CCCc3ccc(-c4nn[nH]n4)cc3)CC2)[C@@H](c2ccccc2)C1 | CCR5 | - | - | - | IC50 | radiometric | - | 0.011 µM
COc1cc(OC)c(C=C2SC(=O)N(CC(=O)N3CCN(c4cccc(Cl)c4)CC3)C2=O)c(OC)c1 | Falcipain-2 | - | - | - | IC50 | fluorescence | Plasmodium falciparum | 16.25 µM
CCOc1ccc2ccccc2c1C(=O)Nc1nnc(NCc2ccc(F)cc2)s1 | Polymerase | - | - | - | IC50 | - | Human cytomegalovirus | <25 µM
CC(=O)c1cnccn1 | Uracil phosphoribosyltransferase | - | RH | - | IC50 | - | Toxoplasma gondii | >2000 µM
CC(C)C(=O)N1C[C@H](CN2CCC(c3ccccc3)CC2)[C@@H](c2ccccc2)C1 | CCR5 | - | - | CCR5-Y37A | IC50 | radiometric | - | 0.18 µM
CO[P@](=O)(c1cc(C)cc(/C=C/C#N)c1)c1c(C(N)=O)[nH]c2ccc(Cl)c(F)c12 | Reverse transcriptase | - | - | L1001 | IC50 | - | HIV | 0.16 µM
Clc1ncccn1 | Uracil phosphoribosyltransferase | - | RH | - | IC50 | - | Toxoplasma gondii | >2000 µM
Cc1cn([C@@H]2O[C@H](CO[Si](C)(C)C(C)(C)C)C3(OS(=O)(=O)C=C3N)[C@H]2O[Si](C)(C)C(C)(C)C)c(=O)n(C)c1=O | Reverse transcriptase | - | - | RT-N137A | IC50 | nucleotide incorporation / radiometric | HIV | 0.9 µM
COc1cc(OC)c(C=C2SC(=O)N(Cc3ccc(C(F)(F)F)cc3)C2=O)c(OC)c1 | Falcipain-2 | - | - | - | IC50 | fluorescence | Plasmodium falciparum | >50 µM
O=P(O)(O)C(F)(Cl)P(=O)(O)O | DNA polymerase | - | - | - | IC50 | - | Herpes simplex virus 1 | >100 µM
Cc1cc(SC2=C(O)C[C@@](CCc3ccc(O)cc3)(C(C)C)OC2=O)c(C(C)(C)C)cc1CO | Cytochrome P450 2D6 | 1 µM | - | - | inhibition | - | - | 5%
O=c1cc(O)nc[nH]1 | Uracil phosphoribosyltransferase | - | RH | - | IC50 | - | Toxoplasma gondii | >2000 µM
CC(Cl)(C(=O)O)P(=O)(O)O | DNA polymerase | - | - | - | IC50 | - | Herpes simplex virus 2 | >100 µM
CCOc1ccc2ccccc2c1C(=O)Nc1nnc(NC2CCCCCC2)s1 | Polymerase | - | - | - | IC50 | - | Human cytomegalovirus | <25 µM
O=Nc1c(O)[nH]c(=O)[nH]c1=O | Uracil phosphoribosyltransferase | - | RH | - | IC50 | - | Toxoplasma gondii | >2000 µM
O=C(O)C(F)(F)P(=O)(O)O | DNA polymerase | 100 µM | - | - | inhibition | - | Herpes simplex virus 2 | 65%
CC[C@H]1C(=O)Nc2ccc(F)cc2N1C(=O)OC(C)C | Reverse transcriptase | - | - | RT-N137Q | IC50 | nucleotide incorporation / radiometric | HIV | 0.007 µM

The last 3 rows once more:

{"structure": "O=Nc1c(O)[nH]c(=O)[nH]c1=O", "target": "Uracil phosphoribosyltransferase", "strain or isolate": "RH", "endpoint": "IC50", "species": "Toxoplasma gondii", "result": ">2000 µM"}
{"structure": "O=C(O)C(F)(F)P(=O)(O)O", "target": "DNA polymerase", "tested at": "100 µM", "endpoint": "inhibition", "species": "Herpes simplex virus 2", "result": "65%"}
{"structure": "CC[C@H]1C(=O)Nc2ccc(F)cc2N1C(=O)OC(C)C", "target": "Reverse transcriptase", "mutations": "RT-N137Q", "endpoint": "IC50", "method": "nucleotide incorporation / radiometric", "species": "HIV", "result": "0.007 µM"}

ICn: concentration for n% inhibition. Percent inhibition refers to the dose given; in toxicity tests it is the harm to the cells. Rows are shuffled and stem from different studies.